Measured values from several laboratories, pooled; numbers as filed in NIAID ChemDB.

All rows: tests in culture; organism: HIV-1; endpoint: EC50

ECn: concentration that inhibits the pathogen or its effect by n%.

compound,changes,cells,read by,strain,value
COc1ccc(C[C@H](NC(=O)OC(C)(C)C)C(=O)N2CCC(=O)[C@@H]2Sc2ccccc2)cc1,,MT-4,syncytia,,>100 µM
CC(C)C1=C2[C@H]3CC[C@@H]4[C@@]5(C)CC[C@H](OC(=O)[C@H]6C[C@@H](C(=O)O)C6(C)C)C(C)(C)[C@@H]5CC[C@@]4(C)[C@]3(C)CC[C@@]2(CC(=O)NCC(C)(C)NC(=O)c2ccc(C(F)(F)F)cc2)CC1=O,,MT-2,p24 / ELISA,92HT599,<1 µM
CN(C)CCSc1ccc(-c2ccc(-c3ccc(SCCN(C)C)cc3)nn2)cc1,,PBMC,RT activity,LAV,5.8 µM
C/C=C/CSc1cc(NC(=S)c2ccoc2C)ccc1Cl,RT-K103N,CEM,syncytia,,0.24 µM
COc1cnc(-n2cnc(C)n2)c2[nH]cc(C(=O)C(=O)N3CCN(C(=O)c4ccccc4)CC3)c12,,MT-2,RT activity,LAI,0.0007 µM
Cc1ccsc1C(=S)Nc1ccc(Cl)c(C(=O)OC(C)C)c1,RT-V106A,CEM,syncytia,,3 µM
CC(C)C1=C2[C@H]3CC[C@@H]4[C@@]5(C)CC[C@H](OC(=O)[C@H]6C[C@@H](C(=O)O)C6(C)C)C(C)(C)[C@@H]5CC[C@@]4(C)[C@]3(C)CC[C@@]2([C@@H](O)CNC(=O)c2ccc(N)nc2)CC1=O,,MT-2,p24 / ELISA,92HT599,<1 µM
O=C(N[C@@H](Cc1ccccc1)C(=O)N1CCC(=O)C1Sc1ccccc1)c1cccnc1,,MT-4,syncytia,,1 µM
OCCNc1nc(-c2cccs2)cc(-c2cccs2)n1,,PBMC,RT activity,LAV,55.2 µM
Cc1occc1C(=S)Nc1ccc(Cl)c(/C=N/OCc2ccccc2)c1,RT-E138K,CEM,syncytia,,≥2.6 µM
CC(C)C1=C2[C@H]3CC[C@@H]4[C@@]5(C)CC[C@H](OC(=O)[C@H]6C[C@@H](C(=O)O)C6(C)C)C(C)(C)[C@@H]5CC[C@@]4(C)[C@]3(C)CC[C@@]2([C@@H](O)CNCc2ccccc2Cl)CC1=O,,MT-2,p24 / ELISA,92HT599,<1 µM
Cc1sccc1C(=S)Nc1ccc(Cl)c(OCCC(C)C)c1,RT-V106A,CEM,syncytia,,0.169 µM
CC1=N/C(=C/c2ccc(Cl)cc2Cl)C(=O)N1c1nc(C)cc(=O)[nH]1,,,RT activity,,56.24 µg/mL
Nc1nc(=O)n([C@H]2C=C[C@@H](CO)O2)cc1Cl,,MT-4,cytopathic effect / trypan blue,IIIB,22 µM
Cc1ccc(C)c(C(C)S(=O)(=O)c2c(C)ccc[n+]2[O-])c1,,CEM,cytopathic effect,MN,1.4 µg/mL
CC1=N/C(=C/c2ccco2)C(=O)N1c1nc(C)cc(=O)[nH]1,,,RT activity,,83.03 µg/mL
CN(C)CCNc1nc(-c2cccs2)cc(-c2cc3ccccc3s2)n1,,PBMC,RT activity,LAV,5.8 µM
CC(C)C1=C2[C@H]3CC[C@@H]4[C@@]5(C)CC[C@H](OC(=O)[C@H]6C[C@@H](C(=O)O)C6(C)C)C(C)(C)[C@@H]5CC[C@@]4(C)[C@]3(C)CC[C@@]2([C@@H](O)CNC(=O)c2ccc(N3CCN(C)CC3)cc2)CC1=O,,MT-2,p24 / ELISA,92HT599,<1 µM
Cc1occc1C(=S)Nc1ccc(Cl)c(OC(=O)OC(C)C)c1,RT-Y188L,CEM,syncytia,,>6 µM
CCOCn1c(Cc2cc(C(F)(F)F)cc(C(F)(F)F)c2)c(C(C)C)c(=O)[nH]c1=O,,MT-4,MTT,IIIB,0.9 µM
CC(C)OC(=O)c1cc(NC(=S)c2ccco2)ccc1Cl,RT-L100I,CEM,syncytia,,17 µM
CN1CCN(CCSc2nccc(-c3ccc(-c4ccnc(SCCN5CCN(C)CC5)n4)s3)n2)CC1,,PBMC,RT activity,LAV,17.5 µM
Cc1cc(=O)[nH]c(N2C(=O)/C(=C\c3ccccc3O)N=C2c2ccccc2)n1,,,RT activity,,51.26 µg/mL
O=S(=O)(Cc1c(Cl)c(Cl)c(Cl)c(Cl)c1Cl)c1cccc[n+]1[O-],,CEM,cytopathic effect,IIIB,0.63 µg/mL
Nc1nc2c(ncn2[C@H]2C=C[C@@H](CO)C2)c(=O)[nH]1,,JM,cytopathic effect,,0.13 µg/mL
C/C=C/COc1cc(NC(=S)c2ccn(C)c2C)ccc1Cl,RT-E138K,CEM,syncytia,,1.5 µM
CC(C)CN(C[C@@H](O)[C@H](Cc1ccccc1)NC(=O)O[C@H]1CCOC1)S(=O)(=O)c1ccc(N)cc1,,CEM,p24,IIIB,0.177 µM
CCOCn1c(Cc2cccc(C(F)(F)F)c2)c(CC)c(=O)[nH]c1=O,,MT-4,MTT,EFV-resistant (K103R V179D P225H),>100 µM
CC(C)C1=C2[C@H]3CC[C@@H]4[C@@]5(C)CC[C@H](OC(=O)[C@H]6C[C@@H](C(=O)O)C6(C)C)C(C)(C)[C@@H]5CC[C@@]4(C)[C@]3(C)CC[C@@]2(CC(=O)NCC2(N)COC2)CC1=O,,MT-2,p24 / ELISA,92HT599,<1 µM
COc1ccccc1C(=S)Nc1ccc(Cl)c(C(=O)OC(C)C)c1,RT-V106A,CEM,syncytia,,12 µM
CC(C)C1=C2[C@H]3CC[C@@H]4[C@@]5(C)CC[C@H](OC(=O)[C@H]6C[C@@H](C(=O)O)C6(C)C)C(C)(C)[C@@H]5CC[C@@]4(C)[C@]3(C)CC[C@@]2(CC(=O)NCc2ccc(OCCN3CCOCC3)cc2)CC1=O,,MT-2,p24 / ELISA,92HT599,<1 µM
CN(C)CCSc1nc(-c2ccccc2)c2ccccc2n1,,PBMC,RT activity,LAV,22.4 µM
CC(C)OC(=O)c1cc(NC(=S)c2ccccc2N)ccc1Cl,RT-E138K,CEM,syncytia,,6.6 µM
Cc1ccc(C)c(C(Cl)S(=O)(=O)c2cc(C)cc[n+]2[O-])c1,,CEM,cytopathic effect,RF,1 µg/mL
CC1=C(C(=S)Nc2ccc(Cl)c(C=NOC(C)(C)C)c2)CCCO1,RT-K103N,CEM,syncytia,,0.216 µM
Nc1nc(=O)n([C@H]2CC[C@@H](CO)O2)cc1Cl,,MT-4,cytopathic effect / trypan blue,IIIB,>500 µM
Cc1occc1C(=S)Nc1ccc(Cl)c(C(=O)OC(C)C2CC2)c1,RT-L100I,CEM,syncytia,,1.7 µM
COc1ccc(/C=C2/N=C(C)N(c3nc(C)cc(=O)[nH]3)C2=O)cc1,,,RT activity,,51.6 µg/mL
C=C(C)COCn1c(Cc2cc(F)ccc2F)c(CC)c(=O)[nH]c1=O,K103N + Y181C,MT-4,MTT,A17,>56 µM
Cc1ccc(C)c(CS(=O)c2ccc(Cl)c[n+]2[O-])c1,RT-K103N,CEM,cytopathic effect,,9 µg/mL
CCOCn1c(Cc2cccc(F)c2)c(CC)c(=O)[nH]c1=O,,MT-4,MTT,EFV-resistant (K103R V179D P225H),>100 µM
Cc1ccsc1C(=S)Nc1ccc(Cl)c(C(=O)OC2CCCCC2)c1,RT-Y181C,CEM,syncytia,,0.87 µM
Cc1cc(/C=C/C#N)cc(C)c1Oc1ccnc(Nc2ccc(CN3CCN(S(=O)(=O)N(C)C)CC3)cc2)n1,E138K,MT-4,MTT,,0.034 µM
Cc1sccc1C(=S)Nc1ccc(Cl)c(C(=O)OC2CCCCC2)c1,RT-K103N,CEM,syncytia,,0.475 µM
CC(C)(C)OC(=O)N[C@@H](Cc1ccc(O)cc1)C(=O)N1CCC(=O)[C@H]1Sc1ccccc1,,MT-4,syncytia,,0.1 µM
CN1CCN(CCSc2nnc(-c3cc4ccccc4s3)c3ccccc23)CC1,,PBMC,RT activity,LAV,17.2 µM
C/C=C/COc1cc(NC(=S)c2ccoc2C)ccc1Cl,RT-V106A,CEM,syncytia,,1.7 µM

An empty or dashed field is not shown. Lines come from different laboratories, so protocols vary.